These results are taken from article PMC9969397, “Rhenium(V) Complexes as Cysteine-Targeting Coordinate Covalent Warheads” (Journal of Medicinal Chemistry, 2023).

By IC50 is commonly meant the concentration that inhibits the measured activity by half. Higher therefore signals weaker potency.

In test [1] the target is SARS-CoV-2 3-chymotrypsin-like protease (3CL^pro) (Severe acute respiratory syndrome coronavirus 2, UniProt P0DTD1). It counts as biochemical. Conditions: Table 2; three independent experiments.
The target of test [2] is T1, SARS-CoV-2 papain-like protease (PL^pro) (Severe acute respiratory syndrome coronavirus 2, UniProt P0DTD1).
T1 construct: papain-like protease (PL^pro); purchased Elabscience
It counts as biochemical. Conditions: Table 2; three independent experiments.

For “ReO(2,2′-thiodiethanethiol)(chloride) [Compound 1]”, the 50% inhibitory concentration (IC50) in test [1] was determined as 37 ± 8 nM; in test [2] it was 19.6 ± 3.3 µM.
Turning to “ReO(2,2′-thiodiethanethiol)(water) Trifluoromethanesulfonate [Compound 3]”, the IC50 in test [1] was 18 ± 6 nM; in test [2], 7.6 ± 2.8 µM.
